Experimental data taken from article PMC7899991, “A Novel Aza-Derivative Inhibits agr Quorum Sensing Signaling and Synergizes Methicillin-Resistant Staphylococcus aureus to Clindamycin” (Frontiers in Microbiology, 2021).
Construct, isoform or probe ends are uncertain for at least one entry. Where a protein sequence is shown, tags need not be part of it.

Target: T1, AgrA (Staphylococcus aureus) (UniProt Q5HEG2)
T1 sequence (looked up, limits assumed): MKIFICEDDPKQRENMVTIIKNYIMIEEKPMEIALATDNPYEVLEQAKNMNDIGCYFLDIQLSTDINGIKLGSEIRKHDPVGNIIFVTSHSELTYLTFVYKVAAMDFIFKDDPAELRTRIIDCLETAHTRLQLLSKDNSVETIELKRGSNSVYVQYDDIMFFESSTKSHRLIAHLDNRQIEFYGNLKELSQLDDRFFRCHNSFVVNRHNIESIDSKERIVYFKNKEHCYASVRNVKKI
Assay: EMSA
Conditions: 50 mM KCl, 1 mM EDTA, 0.05% Triton X-100, 5% glycerol, recombinant protein, protein details: IMPACT intein/chitin tag, removed by DTT cleavage, label: 6-FAM (5' in Table 2, 3' in Methods text)

[1] = no Azan-7, 10 mM HEPES pH 7.6, 2 mM DTT

TACATTTAACAGTTAAGTATTTATTTCCTACAGTTAGGCAATATAATG (double strand) [P2 promoter oligonucleotide]
binding result (Azan-7 50-200 uM, not significantly affected, 10 mM HEPES pH 7.6, 2 mM DTT): binds | binding result [1]: binds

AATTTTTCTTAACTAGTCGTTTTTTATTCTTAACTGTAAATTTTT (double strand) [P3 promoter oligonucleotide]
binding result [1]: binds
